pIC50: −log10 of the molar value.
Biological target: SARS-CoV-2 M^Pro (Severe acute respiratory syndrome coronavirus 2, UniProt P0DTD1)
Test: M^Pro inhibition assay (fluorogenic peptide substrate, 1 h preincubation)
Format: biochemical

Question: How did the pIC50 turn out when `Cc1[nH]c(=O)n(-c2cncc3ccccc23)c(=O)c1-n1nnc2ccccc21` was run?
Answer: 5.13

Source: PMC12017303 (Science Advances, 2025)
